Reference: US9782422B2, “Treatment of conditions associated with mycotoxin exposure” (dated 2017)

Tests used:
Caco-2 cells [1] = test: LDH cell viability assay; conditions: increasing concentrations of DON, 24 h; MTS and MTT similar; FIG. 7
IL-8 = IL-8 ELISA of Caco-2 supernatants; conditions: increasing dosages of DON; similar in apical chamber; FIG. 8
[2] = test system: tight junction proteins occludin, claudin-1, claudin-4 and ZO-1 in Caco-2 cells; test: Localisation of tight junction proteins (immunofluorescence microscopy); conditions: DON 4.2 μM stimulated cells; from the cell membrane towards the inner cell; FIG. 9
IL-6 = IL-6 determination in Caco-2 supernatants; conditions: Caco-2 supernatants after DON
Caco-2 cells [3] = test: Transepithelial electrical resistance (TEER) assay, Caco-2 transwell; conditions: increasing concentrations of DON; FIG. 5
TNF-α = TNF-α determination in Caco-2 supernatants; conditions: Caco-2 supernatants after DON
Caco-2 cells [4] = test: Luciferase yellow (LY) permeability assay, Caco-2 transwell; conditions: increasing concentrations DON, 24 h treatment; FIG. 6

CC1=C[C@H]2O[C@@H]3[C@H](O)C[C@](C)([C@@]2(CO)[C@H](O)C1=O)[C@]31CO1
cell viability (LDH assay) (Caco-2 cells [1]): unaltered cell viability
production of IL-8 into the basolateral chamber (IL-8): dose-dependent production
localisation of tight junction proteins (occludin, claudin-1, claudin-4, ZO-1) [2]: translocated
levels of IL-6 (IL-6): below the detection limit
TEER of Caco-2 cells after DON incubation (Caco-2 cells [3]): dose-dependently reduced
levels of TNF-α (TNF-α): below the detection limit
transport of luciferase yellow (LY) towards the basolateral chamber (Caco-2 cells [4]): significant increase
